Measurements published in patent publication EP4847047A1, “CONJUGATE, PREPARATION METHOD THEREFOR, AND USE THEREOF” (dated 2026).

Tests used:
[1] = system: influenza virus (A/California/07/2009); experiment: In vivo anti-influenza virus activity in severe influenza DBA/2 mouse model; settings: DBA/2 mice, 1×10^4 PFU; zanamivir 5 mg/kg i.v. once daily, oseltamivir phosphate 20 mg/kg oral twice daily, 5 consecutive days
A/Shanghai/02/2013(H7N9) = experiment: In vitro anti-influenza virus activity (CPE inhibition) in infected MDCK cells
A/Darwin/9/2021(H3N2) = experiment: as above
[2] = system: A/Puerto Rico/8/1934(H1N1-PR8); experiment: as above
[3] = system: A/Victoria/2570/2019(H1N1); experiment: as above
A/Vietnam/2004(H5N1) = experiment: as above
[4] = system: B/Austria/1359417/2021(BV); experiment: as above

Row | SMILES | survival of mice receiving positive control drugs [1] | EC50 (A/Shanghai/02/2013(H7N9)) | EC50 (A/Darwin/9/2021(H3N2)) | EC50 [2] | EC50 [3] | EC50 (A/Vietnam/2004(H5N1)) | EC50 [4]
1 | CC(=O)N[C@H]1[C@H]([C@H](O)[C@H](O)CO)OC(C(=O)O)=C[C@@H]1N=C(N)N | died | 55.6 nM | – | – | – | – | –
2 | CCOC(=O)C1=C[C@@H](OC(CC)CC)[C@H](NC(C)=O)[C@@H](N)C1 | – | 100 nM | 9.02 nM | 8590 nM | 465 nM | 267 nM | 1140 nM
3 | COC(=O)OCOc1c2n(ccc1=O)N([C@@H]1c3ccccc3SCc3c1ccc(F)c3F)[C@@H]1COCCN1C2=O | – | – | 0.772 nM | 0.611 nM | 1.05 nM | – | 1.53 nM
